PubChem BioAssay AID624099 | ICCB-Longwood – 2012

- Aim: 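Host factors E2 relies on to silence an HPV18 LCR reporter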 (primary screen)
- Cells: human C33A cervical carcinoma cells (HPV-negative) stably expressing BPV1 E2 and an HPV18 LCR luciferase reporter
- Reagent: siRNA pool against human genes, 40 nM
- Timing: 72 h
- Detection: 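Per-well luciferase luminescence, z-scored on each plate against the plate mean and SD with control wells left out, then averaged across three replicate plates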
- Direction: mean z-score and z-score: higher = stronger reporter signal, weaker E2 silencing
- Hit rule: 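Hit if mean z-score reaches 2 and two or more of three replicate z-scores also reach 2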
The whole screen tested about 21,000 reagents; this is a random part of them. 497 of them (2.4%) count as active. 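Higher z means weaker E2 silencing; only reporter increases were scored, and knock-downs that hurt cell survival may mask genuine repressor factors.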 Unmarked entries are inactive.

For ATP6V0E1, how do the results read?
mean z-score: -0.11; z-score, replicate A: -0.17; z-score, replicate B: -0.03; z-score, replicate C: -0.14

For CMTM7, what was measured?
mean z-score: 1.12; z-score, replicate A: 1.08; z-score, replicate B: 1.1; z-score, replicate C: 1.18

What did the screen give for MDGA2?
mean z-score: 0.84; z-score, replicate A: 0.64; z-score, replicate B: 0.94; z-score, replicate C: 0.95

With ELSPBP1, what was measured?
mean z-score: -0.19; z-score, replicate A: -0.37; z-score, replicate B: -0.33; z-score, replicate C: 0.12

What did the screen give for LOC389089 (retired record)?
mean z-score: -0.67; z-score, replicate A: -0.69; z-score, replicate B: -0.87; z-score, replicate C: -0.44

With SLC9B1P2, what was measured?
mean z-score: -0.01; z-score, replicate A: 0.5; z-score, replicate B: -0.34; z-score, replicate C: -0.18

What did the screen give for SPAST?
mean z-score: 0.81; z-score, replicate A: 0.98; z-score, replicate B: 0.45; z-score, replicate C: 1.01

Which result is listed for RBP2?
mean z-score: 0.35; z-score, replicate A: 0.27; z-score, replicate B: 0.36; z-score, replicate C: 0.42

Which result is listed for RBM12?
mean z-score: 0.55; z-score, replicate A: 0.82; z-score, replicate B: 0.26; z-score, replicate C: 0.57

Which result is listed for POLE2?
mean z-score: -1.04; z-score, replicate A: -1.36; z-score, replicate B: -0.64; z-score, replicate C: -1.13

How did the screen score ZNF385C?
mean z-score: -0.08; z-score, replicate A: -0.4; z-score, replicate B: 0.26; z-score, replicate C: -0.11

With NDC1, how do the results read?
mean z-score: 2.01; z-score, replicate A: 1.97; z-score, replicate B: 1.91; z-score, replicate C: 2.15

Only “mean z-score” (2 entries from above):
ZNF385C	-0.08
NDC1	2.01
